Measured values from several laboratories, pooled; numbers as filed in NIAID ChemDB.

Common to all: whole-cell or culture tests; agent: HIV-1; cells: PBMC; read-out: EC50

ECn: concentration that inhibits the pathogen or its effect by n%. Conditions beyond the fields shown may differ between rows. An empty or dashed field is not shown.

compound | strain | changes | read by | value
COc1c(C)c2c(c(O)c1C/C=C(\C)CCC(=O)O)C(=O)OC2 |  | RT-K65R | p24 | 0.17 µM
C=CCN(C(=O)OCc1ccc([N+](=O)[O-])cc1)C1CCN([C@H]2CN(C(=O)C3CCCC3)C[C@]2(O)c2ccccc2)CC1 |  |  | p24 / ELISA | <0.05 µM
C[C@@H](CNC(=S)Nc1ccccn1)c1ccccc1 | NNRTI-resistant (RT Y181C) A17 | RT-Y181C | p24 | 2.34 µM
CCCc1cc(=O)oc2c3c(c4c(c12)OC(C)(C)C=C4)O[C@@H](C)[C@H](C)[C@@H]3O | CLADE D |  | RT activity | 0.2 µM
Cc1cn([C@@H]2O[C@H](CO)[C@@H](N=[N+]=[N-])[C@H]2O)c(=O)[nH]c1=O |  |  |  | >100 µM
Cc1csc(NC(=S)N[C@H](C)c2ccccc2)n1 | RT-Y181C A17 NNRTI-resistant |  | p24 | 0.16 µM
C=CCN(C(=O)OCc1ccc2nonc2c1)C1CCN([C@H]2CN(C(=O)C3CCCC3)C[C@]2(O)c2ccccc2)CC1 |  |  | p24 / ELISA | <0.005 µM
Cc1cn([C@H]2C[C@H](N=[N+]=[N-])[C@@H](CO)O2)c(=O)[nH]c1=O | SLKA(SI) |  | RT activity | 0.02 µM
COc1c(C)c2c(c(O)c1C/C=C(\C)CCC(=O)O)C(=O)OC2 | LAI |  | p24 | 0.95 µM
COC(=O)[C@H](C)NP(=O)(OC[C@@H]1C=C[C@H](n2cc(C)c(=O)[nH]c2=O)O1)Oc1ccc(Br)cc1 | AZT RT-MDR | RT M41L L74V T215Y V106N | p24 | <0.001 µM
C=CCN(C(=O)OCc1ccc(S(=O)ONC)cc1)C1CCN([C@H]2CN(C(=O)C3CCCC3)C[C@]2(O)c2ccccc2)CC1 |  |  | p24 / ELISA | <0.005 µM
Nc1ccn([C@H]2O[C@@H](CO)C=C2F)c(=O)n1 | xxBRU |  |  | <2.1 µM
Cc1cn([C@H]2C[C@@](F)(CC(F)(F)P(=O)(O)O)CO2)c(=O)[nH]c1=O |  |  | RT activity | >100 µM
Cc1cn([C@H]2C[C@H](N=[N+]=[N-])[C@@H](CO)O2)c(=O)[nH]c1=O |  |  |  | 0.0024 µM
Cc1ccc(-c2ccc3c(c2)C=C(C(=O)Nc2ccc(C[N+](C)(C)C4CCOCC4)cc2)CCC3)cc1 | CTV |  | p24 | 0.0035 µM
Cc1cc(C)nc(N2C(=O)CSC2c2c(Cl)cccc2[N+](=O)[O-])c1 | VB51 |  | p24 / ELISA | 0.004 µg/mL
CC[C@H](C)[C@H]1NC(=O)[C@@H](NC(=O)[C@@H](CC(C)C)N(C)S(=O)(=O)c2ccc(C)cc2)[C@@H](C)OC(=O)[C@H](Cc2ccc(OC)cc2)N(C)C(=O)[C@@H]2CCCN2C(=O)[C@H](CC(C)C)NC(=O)[C@H](C(C)C)OC(=O)C[C@@H]1O | NL4-3 |  | luciferase | 0.021 µM
CCOP(=O)(OCC)C(F)(F)C[C@@]1(F)CO[C@@H](n2ccc(N)nc2=O)C1 |  |  | RT activity | >100 µM
C[C@H](Cn1cnc2c(N)ncnc21)OCP(=O)(O)O | HXB2 |  | p24 | 1.23 µM
Cc1csc(NC(=S)N[C@H](C)c2cccc3ccccc23)n1 | IIIB |  | p24 | 0.001 µM
Cc1cn([C@H]2C[C@H](N=[N+]=[N-])[C@@H](CO)O2)c(=O)[nH]c1=O | BaL |  | p24 / RT activity | 0.00265 µM
CCC[C@@H](c1ccc(C(F)(F)F)cc1)N1CCN(C2(C)CCN(C(=O)c3c(C)ncnc3C)CC2)C[C@@H]1C | 301657 Clinical isolates |  |  | <0.00009 µM
Cc1ccc(NC(=S)N[C@H](C)c2cccc3ccccc23)nc1 | NNRTI-resistant (RT Y181C K103N) A17V | RT-Y181C K103N | p24 | 0.543 µM
Nc1nc(NC2CC2)c2ncn([C@H]3C=C[C@@H](CO)O3)c2n1 | BRU PITT WT |  | cytopathic effect / MTT | 4.4 µM
CCc1cc(NCc2nc3c(Cl)ccc(Cl)c3o2)c(=O)[nH]c1C | Clinical isolate (RT M41L T215Y/F) | RT-M41L T215Y/F | p24 | <0.05 µM
Cc1ccnc2c1NC(=O)c1cccnc1N2C1CC1 | WEJO |  | RT activity | 0.06 µM
CCN(C(=O)OCc1ccccc1)C1CCN(CCC(CO)(CN(C)S(=O)(=O)c2ccccc2)c2ccccc2)CC1 | YU-2 (M-tropic) |  | p24 | <0.14 µM
[N-]=[N+]=N[C@H]1[C@@H](O)[C@H](n2ccc(N)nc2=O)O[C@@H]1CO |  |  |  | 91 µM
CC(C)CN(C[C@@H](O)[C@H](Cc1ccccc1)NC(=O)O[C@H]1CCOC1)S(=O)(=O)c1ccc(N)cc1 | 1026-40 PI-resistant | PR-L10I M46I I54V L63P A71V V82A L90M | RT activity | 0.752 µM
CCOP(=O)(OCC)C(F)(F)C[C@@]1(F)CO[C@@H](n2cc(C)c(=O)[nH]c2=O)C1 |  |  | RT activity | 90 µM
CCC[C@@]1(CCc2ccccc2)CC(O)=C([C@H](CC)c2cccc(NS(=O)(=O)c3ccc(C(F)(F)F)cn3)c2)C(=O)O1 | Isolate UJ00009 |  | p24 | <0.32 µM
C[C@]1(CCP(=O)(O)O)CO[C@@H](n2cnc3c(=O)[nH]c(N)nc32)C1 | LAI |  |  | 85 µM
Nc1nc(N)c2ncn([C@H]3CO[C@@H](CO)O3)c2n1 |  | RT-K65R Q151M | cytopathic effect / XTT | >250 µM
Cc1cc(Cl)nc(C)c1C(=O)NCC[C@@H](C)N1CCC(N(Cc2ccsc2)C(=O)NCCCCC(=O)O)CC1 |  |  | p24 / ELISA | 0.125 µM
CC(C)(C)C(=O)SCCOP(=O)(OCCSC(=O)C(C)(C)C)C(F)(F)C[C@@]1(F)CO[C@@H](n2cnc3c(N)ncnc32)C1 |  |  | RT activity | 10.8 µM
Cc1cccc(C)c1OCC(=O)N[C@@H](Cc1ccccc1)[C@@H](O)C[C@H](Cc1ccccc1)NC(=O)[C@H](C(C)C)N1CCCNC1=O | HXB2 | PR-M46I I47V I50V | p24 | <0.255 µM
O=C1N(Cc2ccc(CO)cc2)[C@H](Cc2ccccc2)[C@H](O)[C@@H](O)[C@@H](Cc2ccccc2)N1Cc1ccc(CO)cc1 | Clinical isolate D1 |  | p24 | 0.07 µM
CC1(C)CC[C@]2(C(=O)O)CC[C@]3(C)C(=CC[C@@H]4[C@@]5(C)CC[C@H](O)C(C)(C)[C@@H]5CC[C@]43C)[C@@H]2C1 | Primary clinical isolate Rome |  | p24 | 22.7 µM
COc1ccc(OC)c(CCNC(=S)Nc2ccc(Br)cn2)c1 | RT-Y181C A17 NNRTI-resistant |  | p24 | 0.14 µM
C=CCN(C(=O)NCc1ccc(C(F)(F)F)cc1)C1C[C@H]2CC[C@@H](C1)N2C[C@H]1CN(C(=O)C2CCCC2)C[C@]1(O)c1cccc(F)c1 |  |  | p24 | <0.005 µM
Nc1nccc2c1ncn2[C@@H]1C[C@H](CO)[C@@H](O)[C@H]1O | A012 PRE-AZT |  |  | 0.141 µM
CCCc1cc(=O)oc2c3c(c4c(c12)OC(C)(C)C=C4)O[C@H](C)[C@@H](C)[C@@H]3O | CLADE D |  | RT activity | 0.06 µM
C=CCN(C(=O)NCc1ccccc1)C1CCN(C[C@H]2CN(C(=O)C3CCCC3)C[C@]2(O)c2ccccc2)CC1 |  |  | p24 | >0.1 µM
C[C@H](CNC(=S)Nc1ccc(Br)cn1)C1CCCCC1 | IIIB |  | p24 | >1 µM
COc1cccc(C[C@H](NC(=O)c2cccc(O)c2C)[C@H](O)C(=O)N2CSC(C)(C)[C@H]2C(=O)NCc2c(C)cccc2C)c1 | 1026-40 PI-resistant | PR-L10I M46I I54V L63P A71V V82A L90M | RT activity | 0.0089 µM
Cc1ncnc(C)c1C(=O)N1CCC(C)(N2CCN([C@@H](Cc3ccccc3)c3ccc(C(F)(F)F)cc3)[C@@H](C)C2)CC1 | JRFL Clinical isolates |  |  | <0.00019 µM
Cc1cn([C@H]2C[C@H](N=[N+]=[N-])[C@@H](CO)O2)c(=O)[nH]c1=O | 3TC-resistant (RT M184V) | RT-M184V |  | <0.003 µM
Cc1ccc(-c2ccc3c(c2)C=C(C(=O)Nc2ccc(C[N+](C)(C)C4CCOCC4)cc2)CCC3)cc1 | ADA R5 |  | antigen | 0.016 µg/mL
CC(C)CN(C[C@@H](O)[C@H](Cc1ccccc1)NC(=O)[C@@H](NC(=O)CNCc1cccc(F)c1)C(C)(C)C)S(=O)(=O)c1ccc(N)cc1 | IIIB |  | virus yield | <0.04 µM
CC(C)Nc1cccnc1N1CCN(C(=O)c2cc3cc(NS(C)(=O)=O)ccc3[nH]2)CC1 | MDR (RT M41L K103N T215Y) Clinical isolate | RT-M41L K103N T215Y | p24 | 14.8 µM
C=CCN(C(=O)Cc1ccc(S(=O)(=O)N(C)C)cc1)C1CCN(C[C@H]2CN(C(=O)C3CCCC3)C[C@]2(O)c2ccccc2)CC1 |  |  | p24 | <0.005 µM
Cc1cn([C@H]2C[C@H](N=[N+]=[N-])[C@@H](CO)O2)c(=O)[nH]c1=O | WEJO (syncytium-inducing) |  | cytopathic effect / XTT | 0.02 µM
O=C(O)c1cc(O)cc(O)c1N=Nc1ccc(/C=C/c2ccc(N=Nc3c(O)cc(O)cc3C(=O)O)cc2S(=O)(=O)O)c(S(=O)(=O)O)c1 | CLADE A |  | p24 | 3.2 µg/mL
CC[C@H](C)[C@H]1NC(=O)[C@@H](NC(=O)[C@@H](CC(C)C)N(C)C(=O)c2cc3ccccc3s2)[C@@H](C)OC(=O)[C@H](Cc2ccc(OC)cc2)N(C)C(=O)[C@@H]2CCCN2C(=O)[C@H](CC(C)C)NC(=O)[C@H](C(C)C)OC(=O)C[C@@H]1O | NL4-3 |  | luciferase | 0.011 µM
CCC(NC(=S)Nc1ccc(Br)cn1)c1ccccc1 | IIIB |  | p24 | 0.001 µM
COc1cc(OC)nc(N2C(=O)CSC2c2c(Cl)cccc2[N+](=O)[O-])n1 | N119 |  | p24 / ELISA | 1.6 µg/mL
Cc1cccc(C)c1OCC(=O)N[C@@H](Cc1ccccc1)[C@@H](O)C[C@H](Cc1ccccc1)NC(=O)[C@H](C(C)C)N1CCCNC1=O | IIIB |  | RT activity | 0.0013 µM
CC[C@]1(c2ccccc2)Oc2cccnc2-n2cccc2C1=O | Resistant (MDR) isolate | RT-M41L K103N T215Y | RT activity | 3.4 µM
C[C@H](NC(=O)[C@H](CCCN=C(N)N)NC(=O)c1ccc(CNCc2ccccn2)cc1)c1cccc2ccccc12 | NL4-3 X4 laboratory isolate |  | p24 | 0.042 µM
CCN(c1ncccc1NC(C)(C)C)C1CCN(C(=O)c2cc3cc(NS(C)(=O)=O)ccc3[nH]2)CC1 | Isolate 458 |  | p24 | <0.03 µM
C[C@H](Cn1cnc2c(N)ncnc21)OCP(=O)(O)O | 288C |  | p24 | 0.09 µM
CCN(C(=O)OCc1ccccc1)C1CCN(CC[C@](C)(CN(C)S(=O)(=O)c2ccccc2)c2ccccc2)CC1 | YU-2 (M-tropic) |  | p24 | <0.5 µM
COc1ccc(C[C@H](NC(=O)c2cccc(O)c2C)[C@H](O)C(=O)N2CSC(C)(C)[C@H]2C(=O)NCc2ccccc2C)cc1 | 1026-40 PI-resistant | PR-L10I M46I I54V L63P A71V V82A L90M | RT activity | 0.099 µM
C[C@@H](NC(=S)Nc1ccc(Cl)cn1)c1cccc2ccccc12 | NNRTI-resistant (RT Y181C K103N) A17V | RT-Y181C K103N | p24 | 0.367 µM
Nc1ncnc2c1ncn2CCOCP(=O)(O)O | LAI |  |  | 5.4 µM

Repeating the first 7 entries:

| compound | strain | changes | read by | value |
|---|---|---|---|---|
| COc1c(C)c2c(c(O)c1C/C=C(\C)CCC(=O)O)C(=O)OC2 |  | RT-K65R | p24 | 0.17 µM |
| C=CCN(C(=O)OCc1ccc([N+](=O)[O-])cc1)C1CCN([C@H]2CN(C(=O)C3CCCC3)C[C@]2(O)c2ccccc2)CC1 |  |  | p24 / ELISA | <0.05 µM |
| C[C@@H](CNC(=S)Nc1ccccn1)c1ccccc1 | NNRTI-resistant (RT Y181C) A17 | RT-Y181C | p24 | 2.34 µM |
| CCCc1cc(=O)oc2c3c(c4c(c12)OC(C)(C)C=C4)O[C@@H](C)[C@H](C)[C@@H]3O | CLADE D |  | RT activity | 0.2 µM |
| Cc1cn([C@@H]2O[C@H](CO)[C@@H](N=[N+]=[N-])[C@H]2O)c(=O)[nH]c1=O |  |  |  | >100 µM |
| Cc1csc(NC(=S)N[C@H](C)c2ccccc2)n1 | RT-Y181C A17 NNRTI-resistant |  | p24 | 0.16 µM |
| C=CCN(C(=O)OCc1ccc2nonc2c1)C1CCN([C@H]2CN(C(=O)C3CCCC3)C[C@]2(O)c2ccccc2)CC1 |  |  | p24 / ELISA | <0.005 µM |